Measured values from several laboratories, pooled; numbers as filed in NIAID ChemDB.

An empty or dashed field is not shown. Rows are shuffled and stem from different studies. MIC bound: limit read from a one-dose screen. ICn: concentration for n% inhibition. Percent inhibition refers to the dose given; in toxicity tests it is the harm to the cells.

| smiles | strain | organism | read by | target | dose | test | measure | value |
|---|---|---|---|---|---|---|---|---|
| O=c1c2ccccc2c2ccccc2n1O | H37Rv | Mycobacterium tuberculosis | BACTEC |  | 12.5 µg/mL | culture | inhibition | 24% |
| COc1cccc(-c2cncc(N3CCN(c4ccncc4)CC3)n2)c1 |  | Cytomegalovirus |  | UL97 kinase |  | target | IC50 | <10 µM |
| CCCCCCCCCCC[n+]1ccccc1 | H37Rv | Mycobacterium tuberculosis |  |  |  | culture | MIC | 50 µg/mL |
| Cc1ccc(N2CCN(c3cncc(-c4ccc(F)c(Cl)c4)n3)CC2)c(C)c1 |  | Cytomegalovirus |  | UL97 kinase |  | target | IC50 | <100 µM |
| N#CC(c1ccccc1)c1ccccc1 | H37Rv | Mycobacterium tuberculosis |  |  |  | culture | MIC | >100 µg/mL |
| CC1=CC2OC3C(OC(=O)CCl)C(OC(=O)CCl)C(C)(C2(COC(=O)CCl)CC1)C31CO1 | H37Rv | Mycobacterium tuberculosis | resazurin |  | 6.25 µg/mL | culture | inhibition | 11% |
| Nc1ccccc1CCC(=O)c1ccccc1 | H37Rv | Mycobacterium tuberculosis |  |  |  | culture | MIC | 25 µg/mL |
| CCCNc1cncc(-c2ccc(C(N)=O)cc2)n1 |  | Cytomegalovirus |  | UL97 kinase |  | target | IC50 | <1 µM |
| Cc1cc(C(=O)[O-])c(C)n1-c1ccc(S(=O)(=O)c2ccc(-n3c(C)cc(C(=O)[O-])c3C)cc2)cc1.O.O.O.O.[K+].[K+] | H37Rv | Mycobacterium tuberculosis |  |  |  | culture | MIC | >100 µg/mL |
| COc1ccccc1N1CCN(c2cncc(-c3ccc(F)c(Cl)c3)n2)CC1 |  | Cytomegalovirus |  | UL97 kinase |  | target | IC50 | <100 µM |
| CCCCCCCCCCCCS(=O)(=O)CC | H37Rv | Mycobacterium tuberculosis |  |  |  | culture | MIC | >100 µg/mL |
| COC(=O)c1cc(N)nn1C | H37Rv | Mycobacterium tuberculosis | resazurin |  |  | culture | MIC bound | >6.25 µg/mL |
| CNc1cccc2c1C(=O)c1ccccc1C2=O | H37Rv | Mycobacterium tuberculosis |  |  |  | culture | MIC | >100 µg/mL |
| O=c1[nH]nc(-c2ccccc2)c2nc3ccccc3n12 | H37Rv | Mycobacterium tuberculosis | BACTEC |  |  | culture | MIC bound | >12.5 µg/mL |
| Cc1ccc(N2CCN(c3cncc(-c4ccccc4)n3)CC2)cc1 |  | Cytomegalovirus |  | UL97 kinase | 10 µM | target | inhibition | >15% |
| COc1cccc2c1C(=O)c1c(O)c3c(c(O)c1C2=O)C[C@@](O)(/C(C)=N/NC(=O)c1ccc(Cl)cc1)C[C@H]3O[C@H]1C[C@H](N)[C@H](O)[C@H](C)O1 | EMB-R | Mycobacterium tuberculosis |  |  |  | culture | MIC | >12.5 µg/mL |
| O=C1OC(c2ccccc2)(c2ccccc2)C=C1c1ccccc1 | H37Rv | Mycobacterium tuberculosis |  |  |  | culture | MIC | >100 µg/mL |
| CC(=O)c1cc2c(cc1C(C)C)CC[C@H]1[C@](C)(C#N)CCC[C@]21C | H37Rv | Mycobacterium tuberculosis | BACTEC |  | 12.5 µg/mL | culture | inhibition | 75% |
| Fc1ccc(N2CCCCC2)c(NC(=S)c2ccncc2)c1 |  |  | kinase activity | SMK1 | 10 µM | host protein | inhibition | 63% |
| c1ccc2c(c1)n1c(N3CCCC3)[n+]3ccccc3c1c1c3cccc[n+]3c(N3CCCC3)n21 | H37Rv | Mycobacterium tuberculosis | BACTEC |  | 6.25 µg/mL | culture | inhibition | 73% |
| Fc1ccccc1N1CCN(c2cncc(-c3ccc4ccccc4c3)n2)CC1 |  | Cytomegalovirus |  | UL97 kinase |  | target | IC50 | <10 µM |

The last 2 rows once more:

smiles,strain,organism,read by,target,dose,test,measure,value
c1ccc2c(c1)n1c(N3CCCC3)[n+]3ccccc3c1c1c3cccc[n+]3c(N3CCCC3)n21,H37Rv,Mycobacterium tuberculosis,BACTEC,,6.25 µg/mL,culture,inhibition,73%
Fc1ccccc1N1CCN(c2cncc(-c3ccc4ccccc4c3)n2)CC1,,Cytomegalovirus,,UL97 kinase,,target,IC50,<10 µM